This note sets out measurements from patent publication US20240122867A1, “CORONAL PROTEIN-COATED NANOPARTICLES AND USES THEREOF” (UNIVERSITY OF CENTRAL FLORIDA RESEARCH FOUNDATION, INC., priority 2021, published 2024).

The data set has as its system coronal proteins on NPs. Set-up: species or system mouse. Conditions: for V5 Sera_Nanoparticles Quantitative Value (Normalized Total Spectra): HBPE-NPs incubated 1 h with IAV day 5 (V5) mouse sera, 20:1 NP:sera, centrifuged and washed; for V5 Sera Alone (Control) Quantitative Value (Normalized Total Spectra): IAV day 5 (V5) mouse sera alone, no NPs (sera-only control).

B1: Serine protease inhibitor A3N (protein, UniProt Q91WP6 21-418, looked up)
Serine protease inhibitor A3N: FPDGTLGMDAAVQEDHDNGTQLDSLTLASINTDFAFSLYKELVLKNPDKNIVFSPLSISAALAVMSLGAKGNTLEEILEGLKFNLTETSEADIHQGFGHLLQRLNQPKDQVQISTGSALFIEKRQQILTEFQEKAKTLYQAEAFTADFQQPRQAKKLINDYVRKQTQGMIKELVSDLDKRTLMVLVNYIYFKAKWKVPFDPLDTFKSEFYAGKRRPVIVPMMSMEDLTTPYFRDEELSCTVVELKYTGNASALFILPDQGRMQQVEASLQPETLRKWKNSLKPRMIDELHLPKFSISTDYSLEDVLSKLGIREVFSTQADLSAITGTKDLRVSQVVHKAVLDVAETGTEAAAATGVKFVPMSAKLYPLTVYFNRPFLIMIFDTETEIAPFIAKIANPK
Take B1: the “V5 Sera_Nanoparticles Quantitative Value (Normalized Total Spectra)” value is 20.67 and the “V5 Sera Alone (Control) Quantitative Value (Normalized Total Spectra)” value (from here on “V5 Sera Alone … (Normalized Total Spectra)”) came out at 19.43.

B2: Carboxylesterase 1C (protein, UniProt P23953 19-554, looked up)
Carboxylesterase 1C: HSLLPPVVDTTQGKVLGKYISLEGFEQPVAVFLGVPFAKPPLGSLRFAPPQPAEPWSFVKNATSYPPMCSQDAGWAKILSDMFSTEKEILPLKISEDCLYLNIYSPADLTKSSQLPVMVWIHGGGLVIGGASPYNGLALSAHENVVVVTIQYRLGIWGLFSTGDEHSPGNWAHLDQLAALRWVQDNIANFGGNPDSVTIFGESSGGISVSVLVLSPLGKDLFHRAISESGVVINTNVGKKNIQAVNEIIATLSQCNDTSSAAMVQCLRQKTESELLEISGKLVQYNISLSTMIDGVVLPKAPEEILAEKSFNTVPYIVGFNKQEFGWIIPMMLQNLLPEGKMNEETASLLLRRFHSELNISESMIPAVIEQYLRGVDDPAKKSELILDMFGDIFFGIPAVLLSRSLRDAGVSTYMYEFRYRPSFVSDKRPQTVEGDHGDEIFFVFGAPLLKEGASEEETNLSKMVMKFWANFARNGNPNGEGLPHWPEYDEQEGYLQIGATTQQAQRLKAEEVAFWTELLAKNPPETDPTEHTEHK
Consider B2, for which the “V5 Sera_Nanoparticles Quantitative Value (Normalized Total Spectra)” value was found to be 21.758 and the “V5 Sera Alone … (Normalized Total Spectra)” value was 28.682.

B3: Beta-2-glycoprotein 1 (protein, UniProt Q01339 20-345, looked up)
Beta-2-glycoprotein 1: GRICPKPDDLPFATVVPLKTSYDPGEQIVYSCKPGYVSRGGMRRFTCPLTGMWPINTLRCVPRVCPFAGILENGIVRYTSFEYPKNISFACNPGFFLNGTSSSKCTEEGKWSPDIPACARITCPPPPVPKFALLKDYRPSAGNNSLYQDTVVFKCLPHFAMIGNDTVMCTEQGNWTRLPECLEVKCPFPPRPENGYVNYPAKPVLLYKDKATFGCHETYKLDGPEEAECTKTGTWSFLPTCRESCKLPVKKATVLYQGMRVKIQEQFKNGMMHGDKIHFYCKNKEKKCSYTVEAHCRDGTIEIPSCFKEHSSLAFWKTDASELTPC
Take B3: the “V5 Sera_Nanoparticles Quantitative Value (Normalized Total Spectra)” value stood at 25.022 and the “V5 Sera Alone … (Normalized Total Spectra)” value is recorded as 21.28.

B4: Complement factor I (protein, UniProt Q61129 19-603, looked up)
Complement factor I: RSPSASDLPQEELVDQKCLLQKYTHRSCNKVFCQPWQRCIEGTCICKLPYQCPRAGTPVCAMNGRSYPTYCHQKSFECLHPEIKFSHNGTCAAEGKFNVSLIYGRTKTEGLVQVKLVDQDERMFICKNSWSMAEANVACVDLGFPLGVRDIQGSFNISGNLHINDTECLHVHCRGVETSLAECAFTKRRTELSNGLAGVVCYKQDADFPTSLSFQCVNGKHIPQEKACNGVNDCGDQSDELCCKGCRGNASLCKSGVCIPDQYKCNGEVDCITGEDESRCEEDRQQNIPKGLARSAQGEAEIETEETEMLTPGMDNERKRIKSLLPKLSCGVKRNTHTRRKRVIGGKPANVGDYPWQVAIKDGQRITCGGIYIGGCWILTAAHCVRPSRAHSYQVWTALLDWLKPNSQLGIQTVKRVIVHEKYNGATFQNDIALIEMKMHTGKKECELPNSVPACVPWSPYLFQPNDRCIISGWGRGKDNQKVYSLRWGEVDLIGNCSQFYPDRYYEKEMQCAGTRDGSIDACKGDSGGPLVCEDINNVTYVWGIVSWGENCGKPEFPGVYTRVANYFDWISYHVGRSLVSQHNV
Turning to B4, the “V5 Sera_Nanoparticles Quantitative Value (Normalized Total Spectra)” value was 19.583 and the “V5 Sera Alone … (Normalized Total Spectra)” value was 17.579.

B5: Complement factor B (protein, UniProt P04186 23-761, looked up)
Complement factor B: TPVLEARPQVSCSLEGVEIKGGSFQLLQGGQALEYLCPSGFYPYPVQTRTCRSTGSWSDLQTRDQKIVQKAECRAIRCPRPQDFENGEFWPRSPFYNLSDQISFQCYDGYVLRGSANRTCQENGRWDGQTAICDDGAGYCPNPGIPIGTRKVGSQYRLEDIVTYHCSRGLVLRGSQKRKCQEGGSWSGTEPSCQDSFMYDSPQEVAEAFLSSLTETIEGADAEDGHSPGEQQKRKIVLDPSGSMNIYLVLDGSDSIGSSNFTGAKRCLTNLIEKVASYGVRPRYGLLTYATVPKVLVRVSDERSSDADWVTEKLNQISYEDHKLKSGTNTKRALQAVYSMMSWAGDAPPEGWNRTRHVIIIMTDGLHNMGGNPVTVIQDIRALLDIGRDPKNPREDYLDVYVFGVGPLVDSVNINALASKKDNEHHVFKVKDMEDLENVFYQMIDETKSLSLCGMVWEHKKGNDYHKQPWQAKISVTRPLKGHETCMGAVVSEYFVLTAAHCFMVDDQKHSIKVSVGGQRRDLEIEEVLFHPKYNINGKKAEGIPEFYDYDVALVKLKNKLKYGQTLRPICLPCTEGTTRALRLPQTATCKQHKEQLLPVKDVKALFVSEQGKSLTRKEVYIKNGDKKASCERDATKAQGYEKVKDASEVVTPRFLCTGGVDPYADPNTCKGDSGGPLIVHKRSRFIQVGVISWGVVDVCRDQRRQQLVPSYARDFHINLFQVLPWLKDKLKDEDLGFL
As for B5, the “V5 Sera_Nanoparticles Quantitative Value (Normalized Total Spectra)” value was 25.022 and the “V5 Sera Alone … (Normalized Total Spectra)” value came out at 22.205.

B6: Histidine-rich glycoprotein (protein, UniProt Q9ESB3 19-525, looked up)
Histidine-rich glycoprotein: LSPTNCDASEPLAEKVLDLINKGRRSGYVFELLRVSDAHLDRAGTATVYYLALDVIESDCWVLSTKAQDDCLPSRWQSEIVIGQCKVIATRYSNESQDLSVNGYNCTTSSVSSALRNTKDSPVLLDFFEDSELYRKQARKALDKYKTDNGDFASFRVERAERVIRARGGERTNYYVEFSMRNCSTQHFPRSPLVFGFCRALLSYSIETSDLETPDSIDINCEVFNIEDHKDTSDMKPHWGHERPLCDKHLCKLSGSRDHHHTHKTDKLGCPPPPEGKDNSDRPRLQEGALPQLPPGYPPHSGANRTHRPSYNHSCNEHPCHGHRPHGHHPHSHHPPGHHSHGHHPHGHHPHSHHSHGHHPPGHHPHGHHPHGHHPHGHHPHGHHPHGHDFLDYGPCDPPSNSQELKGQYHRGYGPPHGHSRKRGPGKGLFPFHHQQIGYVYRLPPLNIGEVLTLPEANFPSFSLPNCNRSLQPEIQPFPQTASRSCPGKFESEFPQISKFFGYTPPK
Regarding B6, the “V5 Sera_Nanoparticles Quantitative Value (Normalized Total Spectra)” value is reported as 18.495 and the “V5 Sera Alone … (Normalized Total Spectra)” value was 14.804.
